Compound potency records, mixed from different reports. Data source: NIAID ChemDB in PubChem.

All rows: enzyme or target tests; organism: HIV-1; protein: Reverse transcriptase; method: RT activity / absorbance; measure: IC50

Rows are shuffled and stem from different studies. ICn: concentration for n% inhibition.

compound	value
O=C1c2ccccc2S[C@H]2[C@H](O)[C@@H](O)[C@@H](O)[C@H](O)CN12	2.73 µM
Cc1cc(C)nc(N2C(=O)CSC2CO)n1	13.58 µM
CC1(C)O[C@@H]2[C@H](O1)[C@H](O)O[C@@H]2C1=NO[C@@H](C[C@H]2O[C@H](CO)[C@H](O)[C@H](O)[C@H]2O)C1	4.31 µM
CCOC(=O)CN1C(=O)CSC1c1ccccc1Cl	10.01 µM
Cc1ccc(CC(=O)Nc2nc(-c3ccccc3)cs2)cc1	49.3 µM
O=C1CS[C@@H]2[C@H](O)[C@@H](O)[C@H](O)[C@H](O)CN12	11.01 µM
CCOC(=O)CN1C(=O)CSC1c1ccccc1	38.01 µM
O=C1c2ccccc2C(=O)c2c1ccc1[nH]c([C@H]3NC[C@@H](O)[C@H]3O)nc21	40.86 µM
COc1ccc(CC(=O)Nc2nc(-c3ccccc3)cs2)cc1	7.35 µM
CCOC(=O)C1SCC(=O)N1c1nc(C)cc(C)n1	17.35 µM
O=C1CS[C@H]2[C@H](O)[C@@H](O)[C@@H](O)[C@H](O)CN12	7.71 µM
CCOC(=O)CN1C(=O)CSC1c1c(Cl)cccc1Cl	>100 µM
O=C1c2ccccc2S[C@@H]2[C@@H](O)[C@@H](O)[C@H](O)[C@H](O)CN12	13.44 µM
O=C1c2ccccc2C(=O)c2c1ccc1[nH]c(CNCCN3[C@@H](CO)[C@@H](O)[C@H](O)[C@@H]3CO)nc21	24.54 µM
O=C(O)CN1C(=O)CSC1c1ccccc1Cl	28.86 µM
O=C1c2ccccc2C(=O)c2c1ccc1[nH]c(CNCCCN3[C@@H](CO)[C@@H](O)[C@H](O)[C@@H]3CO)nc21	27.78 µM
CC1(C)O[C@@H]2[C@H](O1)[C@H](O)O[C@@H]2C1=NO[C@@H](C[C@H]2O[C@H](CO)[C@@H](O)[C@H](O)[C@@H]2O)C1	>50 µM
O=C1CSC(c2ccccc2Cl)N1CCO	14.08 µM
CC1(C)O[C@@H]2[C@H](O1)[C@H](O)O[C@@H]2C1=NO[C@H](C[C@H]2O[C@H](CO)[C@@H](O)[C@H](O)[C@@H]2O)C1	>50 µM
O=C1c2ccccc2C(=O)c2c1ccc1[nH]c(CNCCCCN3[C@@H](CO)[C@@H](O)[C@H](O)[C@@H]3CO)nc21	33.13 µM
CC1(C)O[C@H]2O[C@H](C3=NO[C@@H](C[C@H]4O[C@H](CO)[C@@H](O)[C@H](O)[C@@H]4O)C3)[C@H](O)[C@H]2O1	7.17 µM
CS(C)=O	>1000 µM

A second listing of 2 rows from above:

compound,value
O=C1c2ccccc2C(=O)c2c1ccc1[nH]c(CNCCCCN3[C@@H](CO)[C@@H](O)[C@H](O)[C@@H]3CO)nc21,33.13 µM
O=C1c2ccccc2C(=O)c2c1ccc1[nH]c([C@H]3NC[C@@H](O)[C@H]3O)nc21,40.86 µM